A mixed list of measured activities; the numbers were collected in NIAID ChemDB.

Shared fields: tests on isolated targets; species: HIV-1; protein: gp120; read by: ELISA; measure: IC50

ICn: concentration for n% inhibition. An empty or dashed field is not shown. Rows are shuffled and stem from different studies.

| compound | strain or isolate | setting | result |
|---|---|---|---|
| CC1(C)CC(NC(=O)C(=O)Nc2ccc(Br)cc2)CC(C)(C)N1 | MN |  | 4.21 µM |
| NCCCC[C@H](NC(=O)[C@@H](N)Cc1ccccc1)C(=O)N[C@@H](Cc1ccccc1)C(=O)N[C@@H](CCCN=C(N)N)C(N)=O |  |  | 1780 µM |
| CN1C(=O)C(c2cc(Cl)c(O)c(Cl)c2)NC(=O)[C@@H]2NC(=O)C(c3cc(Cl)c(O)c(Cl)c3)NC(=O)[C@H](NC(=O)C(=O)c3cc(Cl)c(O)c(Cl)c3)Cc3c[nH]c4c(cccc34)-c3cc2cc(c3O)Oc2ccc(cc2)CC1C(=O)NC(C(=O)O)c1ccc(O)cc1 |  |  | <10 µM |
| CC[C@H](C)[C@H](NC(=O)[C@@H](N)CC(N)=O)C(=O)N1CCC[C@H]1C(=O)N[C@@H](Cc1c[nH]c2ccccc12)C(=O)N[C@@H](CO)C(=O)N[C@@H](CCC(=O)O)C(=O)N[C@@H](C)C(=O)O | SF2 |  | >500 µM |
| NC(=O)[C@H](CCCN=C(N)N)NC(=O)[C@@H](N)Cc1ccccc1 |  |  | 240 µM |
| O=C(O[C@H]1Cc2c(O)cc(O)cc2O[C@@H]1c1cc(O)c(O)c(O)c1)c1cc(O)c(O)c(O)c1 |  |  | >20 µM |
| NC(=O)[C@H](CCCN=C(N)N)NC(=O)[C@@H]1CCCN1C(=O)[C@@H](N)Cc1ccccc1 |  |  | 340 µM |
| O=C(C(=O)N1CCN(C(=O)c2ccccc2)CC1)c1c[nH]c2ccccc12 | YU2 |  | <1 µM |
| O=C(O[C@@H]1Cc2c(O)cc(O)cc2O[C@@H]1c1cc(O)c(O)c(O)c1)c1cc(O)c(O)c(O)c1 |  |  | >20 µM |
| COc1ccc(OC)c2c(C(=O)C(=O)N3CCN(C(=O)c4ccccc4)CC3)c[nH]c12 | JR-FL |  | 0.024 µM |
| COC(=O)C(=O)N1CCC[C@H]1C(=O)N[C@@H](Cc1ccccc1)C(=O)OCc1ccccc1 |  |  | >400 µg/mL |
| NCCCC[C@H](NC(=O)[C@H](Cc1ccccc1)NC(=O)[C@@H](N)Cc1ccccc1)C(=O)N[C@@H](CCCN=C(N)N)C(N)=O |  |  | 2910 µM |
| COC(=O)C(=O)N1CCC[C@@H]1C(=O)N[C@H](Cc1ccccc1)C(=O)OCc1ccccc1 |  | 3% FBS | >500 µM |
| NC(=O)[C@H](CCCN=C(N)N)NC(=O)[C@H](CO)NC(=O)[C@H](Cc1ccccc1)NC(=O)[C@@H](N)Cc1ccccc1 |  |  | 2750 µM |
| COc1ccc(CCNc2nc(N3CCc4cc(OC)c(OC)cc4C3)nc3cc(OC)c(OC)cc23)cc1OC |  |  | 32.5 µg/mL |
| CCCCCCC[C@H]1CC2CCC3C(C(=O)OCCCCCCCCCC4N=C(N)N5CCCC5=C4C(=O)OCCCCN=C(N)N)=C(C)NC(=N1)N23 |  |  | 31 µM |
| CSCC[C@H](NC(=O)[C@H](CCSC)NC(=O)[C@H](C)NC(=O)[C@H](CCC(=O)O)NC(=O)[C@H](CO)NC(=O)[C@H](Cc1c[nH]c2ccccc12)NC(=O)[C@@H]1CCCN1)C(=O)O | SF2 |  | >500 µM |
| CC(C)[C@H](NC(=O)[C@@H](N)Cc1ccccc1)C(=O)N[C@@H](CCCN=C(N)N)C(N)=O |  |  | 270 µM |
| CCCCCCC[C@H]1CC2CCC3=C(C(=O)OCCCCN=C(N)N)C(CCCCC)N=C(N1)N32 |  |  | >100 µM |

3 of the rows above, restated:

compound | strain or isolate | setting | result
CC(C)[C@H](NC(=O)[C@@H](N)Cc1ccccc1)C(=O)N[C@@H](CCCN=C(N)N)C(N)=O |  |  | 270 µM
O=C(O[C@H]1Cc2c(O)cc(O)cc2O[C@@H]1c1cc(O)c(O)c(O)c1)c1cc(O)c(O)c(O)c1 |  |  | >20 µM
O=C(O[C@@H]1Cc2c(O)cc(O)cc2O[C@@H]1c1cc(O)c(O)c(O)c1)c1cc(O)c(O)c(O)c1 |  |  | >20 µM